Pooled drug test results. Numbers come from NIAID ChemDB, via PubChem.

Shared fields: target-level tests; agent: HIV-1; protein: Reverse transcriptase; read-out: IC50

a–b is a range or a potency band. Lines come from different laboratories, so protocols vary. ICn: concentration for n% inhibition.

{"SMILES": "Nc1ccn([C@@H]2O[C@H](COP(=O)(O)O[C@@H]3[C@H](O)[C@@H](COP(=O)(O)O[C@@H]4[C@H](O)[C@@H](COP(=O)(O)O[C@@H]5[C@H](O)[C@@H](COP(=O)(O)O)O[C@H]5n5ccc(N)nc5=O)O[C@H]4n4ccc(N)nc4=O)O[C@H]3n3ccc(N)nc3=O)[C@@H](O)[C@H]2O)c(=O)n1", "method": "nucleotide incorporation / radiometric", "result": "118 µM"}
{"SMILES": "CC(C)=CCN1C(C)C(=O)Nc2ccc(Cl)cc2S1(=O)=O", "method": "nucleotide incorporation / radiometric", "result": "0.94 µM"}
{"SMILES": "CCCCCCCCCCCCCCCCOCC(COC(=O)CCC(=O)OC1CC(COP(=O)(O)OC2CC(COP(=O)(O)OC3CC(CO)OC3n3cnc4c(N)ncnc43)OC2n2cnc3c(N)ncnc32)OC1n1cnc2c(N)ncnc21)OCCCCCCCCCCCCCCCC", "result": "<300 µM"}
{"SMILES": "CCN1c2ncc(CCOc3ccc(S(=O)(=O)NC(C)=O)c4ccccc34)cc2C(=O)N(C)c2cccnc21", "changes": "RT-Y188L", "method": "nucleotide incorporation / radiometric", "result": ">1 µM"}
{"SMILES": "CCc1ccc(-n2c(Br)nnc2SCC(=O)Nc2ccc(C(=O)NCCN(C)C)cc2Cl)c2ccccc12", "changes": "RT-Y181C", "method": "nucleotide incorporation / radiometric", "result": "<0.05 µM"}
{"SMILES": "Cc1occc1C(=S)Nc1ccc(Cl)c(C(=O)OCC2CC2)c1", "changes": "RT-Y181C", "method": "nucleotide incorporation / radiometric", "result": ">50 µM"}
{"SMILES": "CC(C)(O/N=C(/C(=O)NCC=O)c1csc(N)n1)C(=O)O", "method": "nucleotide incorporation / radiometric", "result": ">100 µg/mL"}
{"SMILES": "CCCCCCCCCOc1cccc(C(=O)Nc2c(O)c3ccc(O[C@@H]4OC(C)(C)[C@H](CO)[C@@H](OC(N)=O)[C@H]4O)c(C)c3oc2=O)c1", "method": "radiometric", "result": "40 µM"}
{"SMILES": "CCN1c2ncc(CCOc3ccc(CC(C)C(=O)O)c4ccccc34)cc2C(=O)Nc2c(C)ccnc21", "changes": "RT-K103N Y181C", "method": "nucleotide incorporation / radiometric", "result": ">1 µM"}
{"SMILES": "Cc1cc(S(N)(=O)=O)ccc1NC(=O)CSc1nnc(Br)n1-c1ccc(F)c2ccccc12", "changes": "RT-Y181C", "method": "nucleotide incorporation / radiometric", "result": ">0.1 µM"}
{"SMILES": "C=CCO/N=C/c1cc(NC(=S)c2ccoc2C)ccc1Cl", "changes": "RT-L108I", "method": "nucleotide incorporation / radiometric", "result": ">50 µM"}
{"SMILES": "Nc1ccn([C@@H]2O[C@H](COP(=O)(O)O[C@@H]3[C@H](O)[C@@H](COP(=O)(O)O[C@@H]4[C@H](O)[C@@H](COP(=O)(O)OP(=O)(O)OP(=O)(O)O)O[C@H]4n4ccc(N)nc4=O)O[C@H]3n3ccc(N)nc3=O)[C@@H](O)[C@H]2O)c(=O)n1", "method": "nucleotide incorporation / radiometric", "result": "132 µM"}
{"SMILES": "Cc1cc(S(N)(=O)=O)ccc1NC(=O)C(C)Sc1nnc(Br)n1-c1c(C)ccc2ccccc12", "changes": "RT-Y188L", "method": "nucleotide incorporation / radiometric", "result": ">0.1 µM"}
{"SMILES": "Cc1cccc(CN2C(C)C(=O)Nc3ccc(Cl)cc3S2(=O)=O)c1", "method": "nucleotide incorporation / radiometric", "result": "1 µM"}
{"SMILES": "O=C(CSc1nnc(Br)n1-c1ccc(C2CC2)cc1Cl)Nc1ccc(C(=O)O)cc1Cl", "method": "nucleotide incorporation / radiometric", "result": "<0.05 µM"}
{"SMILES": "Cc1occc1C(=S)Nc1ccc(Cl)c(/C=N/OC(C)(C)C)c1", "changes": "RT-Y181C", "method": "nucleotide incorporation / radiometric", "result": "37 µM"}
{"SMILES": "C=C1CC[C@@H](OC(=O)CCC(=O)OC2CC(COP(=O)(O)OC3CC(COP(=O)(O)OC4CC(CO)OC4n4cnc5c(N)ncnc54)OC3n3cnc4c(N)ncnc43)OC2n2cnc3c(N)ncnc32)C/C1=C/C=C1\\CCC[C@]2(C)[C@@H]([C@@H](C)/C=C/[C@H](C)C(C)C)CC[C@@H]12", "result": "<300 µM"}
{"SMILES": "CCc1ccc(-n2c(Br)nnc2SCC(=O)Nc2ccc(C(=O)NCC(C)(C)N)cc2Cl)c2ccccc12", "changes": "RT-Y181C", "method": "nucleotide incorporation / radiometric", "result": "<0.05 µM"}
{"SMILES": "C=C1CC[C@@H](OC(=O)CCC(=O)OCC2CC(OP(=O)(O)OCC3CC(OP(=O)(O)OCC4CC(O)C(n5cnc6c(N)ncnc65)O4)C(n4cnc5c(N)ncnc54)O3)C(n3cnc4c(N)ncnc43)O2)C/C1=C/C=C1\\CCC[C@]2(C)[C@@H]([C@@H](C)/C=C/[C@H](C)C(C)C)CC[C@@H]12", "result": ">300 µM"}
{"SMILES": "NS(=O)(=O)c1ccc(NC(=O)CSc2nnc(Br)n2-c2ccc(F)c3ccccc23)c(Cl)c1", "changes": "RT-Y188L", "method": "nucleotide incorporation / radiometric", "result": ">0.1 µM"}
{"SMILES": "CCCCCCCCCCCCCCCC(=O)OCC(COC(=O)CCC(=O)OC1CC(COP(=O)(O)OC2CC(COP(=O)(O)OC3CC(CO)OC3n3cnc4c(N)ncnc43)OC2n2cnc3c(N)ncnc32)OC1n1cnc2c(N)ncnc21)OC(=O)CCCCCCCCCCCCCCC", "result": "<300 µM"}
{"SMILES": "CCN1c2ncc(CCOc3ccc(CCC(=O)O)c4ccccc34)cc2C(=O)N(C)c2ccc(F)nc21", "changes": "RT-Y188L", "method": "nucleotide incorporation / radiometric", "result": ">1 µM"}
{"SMILES": "CNS(=O)(=O)c1ccc(NC(=O)CSc2nnc(C(F)F)n2-c2ccc(C)c3ccccc23)c(Cl)c1", "changes": "RT-Y188L", "method": "nucleotide incorporation / radiometric", "result": ">0.1 µM"}
{"SMILES": "Cc1ccccc1CN1C(C)C(=O)Nc2ccc(Cl)cc2S1(=O)=O", "method": "nucleotide incorporation / radiometric", "result": "3.91 µM"}
{"SMILES": "NS(=O)(=O)c1ccc(NC(=O)CSc2nnc(C(F)F)n2-c2ccc(C3CCC3)c3ccccc23)c(Cl)c1", "changes": "RT-Y188L", "method": "nucleotide incorporation / radiometric", "result": "0.05–0.1 µM"}
{"SMILES": "Nc1ncnc2c1ncn2[C@@H]1O[C@H](COP(=O)(S)O[C@@H]2[C@H](O)[C@@H](COP(O)(=S)O[C@@H]3[C@H](O)[C@@H](COP([O-])(=S)OP(=O)(O)OP(=O)(O)O)O[C@H]3n3cnc4c(N)ncnc43)O[C@H]2n2cnc3c(N)ncnc32)[C@@H](O)[C@H]1O", "method": "nucleotide incorporation / radiometric", "result": "0.5 µM"}
{"SMILES": "CCN1c2ncc(CCOc3ccc(NC(=O)CC(C)(C)C(=O)O)c4ccccc34)cc2C(=O)N(C)c2cccnc21", "changes": "RT-V106A", "method": "nucleotide incorporation / radiometric", "result": ">1 µM"}
{"SMILES": "CC(Sc1nnc(Br)n1-c1ccc(C2CC2)c2ccccc12)C(=O)Nc1ccc(S(N)(=O)=O)cc1Cl", "changes": "RT-Y181C", "method": "nucleotide incorporation / radiometric", "result": "0.05–0.1 µM"}

A second listing of 4 rows from above:

NS(=O)(=O)c1ccc(NC(=O)CSc2nnc(C(F)F)n2-c2ccc(C3CCC3)c3ccccc23)c(Cl)c1 ; changes: RT-Y188L ; method: nucleotide incorporation / radiometric ; result: 0.05–0.1 µM
CCCCCCCCCOc1cccc(C(=O)Nc2c(O)c3ccc(O[C@@H]4OC(C)(C)[C@H](CO)[C@@H](OC(N)=O)[C@H]4O)c(C)c3oc2=O)c1 ; method: radiometric ; result: 40 µM
Cc1cc(S(N)(=O)=O)ccc1NC(=O)CSc1nnc(Br)n1-c1ccc(F)c2ccccc12 ; changes: RT-Y181C ; method: nucleotide incorporation / radiometric ; result: >0.1 µM
Cc1ccccc1CN1C(C)C(=O)Nc2ccc(Cl)cc2S1(=O)=O ; method: nucleotide incorporation / radiometric ; result: 3.91 µM